PubChem BioAssay AID1259414 – Drosophila RNAi Screening Center – 2018

- Aim: 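Host factors increasing or decreasing Wolbachia levels in cultured fly cells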 (primary screen)
- System: Drosophila JW18 cells infected with Wolbachia
- Knock-down reagent: long dsRNA against Drosophila genes, 0.25 µg dsRNA per well of a 384-well plate
- Time to read-out: 5 days
- Challenge: cells persistently infected with Wolbachia before knock-down; no added drug
- Measured: 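Automated imaging of bacterial rRNA staining divided by host cell count, reported as plate-normalised robust z-score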
- Direction: Wolbachia per cell robust z: higher = more Wolbachia per host cell than the plate typical
- Call rule: 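Active if absolute robust z reaches 1.5 in two or more of three replicates, leaving out multi- or no-target dsRNAs, genes unexpressed in JW18 and A1 wells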
In all, the deposit lists about 24,000 reagents; shown is a random part of those with a known target gene and a result. In the full data, about 1,210 (5%) were called active. 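Inactive calls also include excluded dsRNAs with several or no targets, genes unexpressed in JW18, and well A1, regardless of score.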 Unmarked entries are inactive. Reagents against one gene are numbered here. A plus sign joins genes that one reagent is predicted to hit.

gene	reagent no.	Wolbachia per cell robust z, rep 1	Wolbachia per cell robust z, rep 2	Wolbachia per cell robust z, rep 3
Gss2 + Gss1	1	0.471	-1.95	0.911
Sxl (Sex lethal)	1	-0.158	-0.426	-3.46
Sxl (Sex lethal)	2	-2.9	-6.02	-3.05
Sxl (Sex lethal)	3	-1.73	-1.16	-1.05
Sxl (Sex lethal)	4	-0.0305	0.336	-0.599
CG6938	1	0.674	1.19	0.5
CG6938	2	0.305	1.27	0.993
Naxd (NAD(P)HX dehydratase)	1	0.213	0.0455	0.364
Iris	1	-0.977	0.423	0.607
CG34213	1	0.618 (active)	1.52	1.76
Nox (NADPH oxidase)	1	0.473	-0.214	0.164
Nox (NADPH oxidase)	2	1.25	0.0928	0.116
Nox (NADPH oxidase)	3	0.449	-0.245	-0.166
Nox (NADPH oxidase)	4	0.163	-0.465	-0.395
Gr57a (Gustatory receptor 57a)	1	-0.839	1.07	0.615
CG30495	1	-0.687	-0.426	-0.784
CG30495	2	1.13	0.681	-0.722
Shawn + Tyler	1	0.426	0.469	0.572
Cpr66D (Cuticular protein 66D)	1	1.23	-2.36	0.393
Cpr66D (Cuticular protein 66D)	2	0.164	0.18	-0.736
Nap1 (Nucleosome assembly protein 1)	1	0.999	0.186	0.807
Dab (Disabled)	1	-0.319	0.858	1.23
CG2574	1	0.487	-0.0254	0.93
TotA (Turandot A)	1	0.023	0.498	0.813
CG3618	1	0.274	-0.221	0.481
Pex12 (Peroxin 12)	1	-0.903	0.874	0.39
Pex12 (Peroxin 12)	2	2.28 (active)	1.09	2.03
CycD (Cyclin D)	1	1.54	1	-3.17
CycD (Cyclin D)	2	1.32	2.17	1.28
CG32260	1	0.0997	-0.0416	-0.116
CG32260	2	0.218	-1.4	-0.409
CG7058	1	-0.162	-0.521	-0.0108
CG7058	2	1.25	0.33	0.0318
PPYR1 (Protein phosphatase Y regulator 1)	1	0.533	0.563	-3.79
PPYR1 (Protein phosphatase Y regulator 1)	2	1.29	0.375	0.293
CG13589	1	-0.337	-4.99	-2.07
CG13589	2	0.395	1.35	-0.181
CG43123	1	-0.984	0.0609	-1.8
CG3199	1	0.636	0.354	0.015
CG3199	2	0.305	0.108	1.12
Mesh1 (Metazoan SpoT homolog-1)	1	-0.213	-0.291	-0.807
Ir52d (Ionotropic receptor 52d)	1	0.0513	0.373	-0.971
CG34337	1	0.095	-0.0576	0.511
CG34337	2	0.287	-2.39	0.478
CG5611	1	-0.162	-2.82	-0.601
CG13699	1	0.627	0.832	0.191
CG13699	2	0.647	0.731	0.97
brv2 (brivido-2)	1	0.91	1.24	2.68
brv2 (brivido-2)	2	0.576	0.399	-0.201
mino (minotaur)	1	-0.338	-0.31	-4.9
CG11227	1	-1.14	-0.925	-1.63
CG11227	2	-0.179	-0.408	-0.783
rho-5 (rhomboid-5)	1	0.229	0.108	-0.997
rho-5 (rhomboid-5)	2	0.052	-0.797	0.578
geko	1	-0.15	-8.82	0.644
geko	2	0.148	0.756	-0.648
CG14441	1	-0.062	-0.127	0.235
eEF1alpha2 (eukaryotic translation elongation factor 1 alpha 2)	1	-7.37	1.27	0.48
eEF1alpha2 (eukaryotic translation elongation factor 1 alpha 2)	2	0.57	0.0329	0.101
Ets65A (Ets at 65A)	1	-7.73	0.629	0.544
Ets65A (Ets at 65A)	2	-0.159	-0.369	0.641
Ets65A (Ets at 65A)	3	0.0732	-0.503	-0.223
CG4025	1	-1.63	-0.672	-0.611
CG32176	1	-0.314	-1.35	0.515
CG32176	2	-3.79 (active)	1.31	-1.53
CG9240	1	-1.58	-1.95	-2.26
zld (zelda)	1	-1.48	0.168	-3.47
zld (zelda)	2	-0.805	-3.37	-1.12
